A mixed list of measured activities; the numbers were collected in NIAID ChemDB.

Shared fields: whole-cell or culture tests; species: Mycobacterium avium; read-out: MIC

Rows are shuffled and stem from different studies. An empty or dashed field is not shown. a–b is a range or a potency band.

compound | strain | method | conditions | result
CCCCCCOc1ccc(NC(=O)OC(C)CN2CCCCC2)cc1 | MY330/88 | - | - | 16 µM
COc1ccc2oc(=S)n(-c3ccc(C(F)(F)F)cc3)c(=S)c2c1 | MY330/88 | - | 14 d | 62.5 µM
c1ccc(-c2ccc(CNc3cccc(N4CCOCC4)c3)cc2)cc1 | 103317 | - | - | 22.3 µM
CC(C)N=c1cc2n(-c3ccc(Cl)cc3)c3ccccc3nc-2cc1Nc1ccc(Cl)cc1 | 11882 | - | - | 5 µg/mL
Cc1cn2c(C(=O)NCc3ccc(N4CCSCC4)c(F)c3)c(C)nc2s1 | 2151 | resazurin | - | <2 µM
CCCCCCOc1ccc(NC(=O)OC(COCC)CN2CCCCC2)cc1 | MY330/88 | - | - | 32 µM
CCCCCCCCCCOc1ccccc1NC(=O)OCC[NH+]1CCCC1 | MY330/88 | - | - | 16 µM
Cc1ccn2c(C(=O)NCc3ccc(N(C)C)cc3)c(C)nc2c1 | 101 | resazurin | - | <2 µM
Clc1ccc(/C(Cn2ccnc2)=N/OCc2ccccc2)c(Cl)c1 | 103317 | - | - | 1.39 µM
CCCCCCCC[N+]1(CCOC(=O)Nc2ccccc2OCCCCC)CCCCC1 | MY330/88 | - | - | 32 µM
Fc1ccc(-n2c(=S)oc3ccc(Cl)cc3c2=S)cc1 | MY330/88 | - | 14 d | 16 µM
O=C(C/C=C/c1ccccc1)Nc1cccc(N2CCSCC2)c1 | 103317 | - | - | >16 µg/mL
Cc1ccn2c(C(=O)NCc3ccc(N4CCC(NC(=O)OC(C)(C)C)CC4)c(F)c3)c(C)nc2c1 | 2151 | resazurin | - | 2–10 µM
Clc1ccc(C(Cn2ccnc2)NC/C=C/c2ccccc2)c(Cl)c1 | 103317 | - | - | 21.5 µM
CCCCCOc1ccccc1NC(=O)OCC[N+]1(CCC)CCCCC1 | MY330/88 | - | - | 500 µM
CCCCOc1ccc(NC(=O)OCC[NH+]2CCCC2)cc1 | MY330/88 | - | - | 250 µM
CCCCCOc1cccc(NC(=O)OCCN2CCCCC2)c1 | MY330/88 | - | - | 32 µM
CC(C)(C)n1cc(C(=O)O)c(=O)c2cc(F)c(N3CCNCC3)nc21 | LR114R | - | - | 0.06 µg/mL
O=c1oc2ccc(Cl)cc2c(=S)n1-c1cccc(F)c1 | MY330/88 | - | 21 d | 32 µM
CCCCCCCOc1ccc(NC(=O)OCC[NH+]2CCCC2)cc1 | MY330/88 | - | - | 16 µM
CCCCc1ccc(NC(=S)c2ccccc2)cc1 | MY330/88 | - | - | 62.5 µM
CCCCCOc1cccc(NC(=O)OCC[NH+]2CCCC2)c1 | MY330/88 | - | - | 62.5 µM
CN1CCN(c2ccccc2NCc2ccc(Cl)cc2)CC1 | 103317 | - | - | >16 µg/mL
CCCCCCCCCCCC[N+]1(CCOC(=O)Nc2ccccc2OCCCCCC)CCCCC1 | MY330/88 | - | - | 16 µM
CCCCCCCOc1ccc(NC(=O)OC(C)CN2CCCCC2)cc1 | MY330/88 | - | - | 16 µM
CC(C)c1ccc(NC(=S)c2cccc(Cl)c2)cc1 | MY330/88 | - | - | 62.5 µM
CCCCOc1ccccc1NC(=O)OC(COCC)CN1CCCCC1 | MY330/88 | - | - | 250 µM
O=C(Nc1cccc(N2CCSCC2)c1)c1ccc(Cl)cc1 | 103317 | - | - | >16 µg/mL
CCCCOc1ccccc1NC(=O)OCCN(C)C | MY330/88 | - | - | 125 µM
COc1ccc2oc(=O)n(-c3ccc(C)cc3)c(=S)c2c1 | MY330/88 | - | 21 d | 32 µM
Cc1cccc(C(N)=Nc2nc(-c3ccccn3)cc3ccccc23)c1 | SK-22 | - | - | 4 µg/mL
CN1CCN(c2cccc(NCc3ccc(Cl)cc3)c2)CC1 | 103317 | - | - | 97.8 µM
COc1cccc(C(=S)Nc2ccc(C(C)C)cc2)c1 | MY330/88 | - | - | 32 µM
CCCCCOc1ccc(NC(=O)OCCN2CCOCC2)cc1 | MY330/88 | - | - | 62.5 µM
CCCCCOc1ccccc1NC(=O)OCC[N+]1(CC)CCCCC1 | MY330/88 | - | - | 1000 µM
CC(C)N=C(N)/N=C(\N)NOCCCOc1ccc(Cl)c(Cl)c1 | LPR | - | - | 16.6 µg/mL
Cc1cn2c(C(=O)NCc3ccc(Oc4ccc(C(F)(F)F)cc4)cc3)c(C)nc2s1 | 2151 | resazurin | - | <2 µM
Cc1ccc2oc(=O)n(-c3ccc(C(F)(F)F)cc3)c(=S)c2c1 | MY330/88 | - | 14 d | 32 µM
CCCCOc1cccc(NC(=O)OCCN2CCCCC2)c1 | MY330/88 | - | - | 62.5 µM
c1ccc(/C(Cn2ccnc2)=N/OCc2ccc(-c3ccccc3)cc2)cc1 | 103317 | - | - | 21.7 µM
Cc1cccc(C(=S)Nc2ccc(C(C)C)cc2)c1 | MY330/88 | - | - | 62.5 µM
Clc1ccc(/C(Cn2ccnc2)=N\OCc2cccc3ccccc23)cc1 | 103317 | - | - | 21.3 µM
COc1ccc2oc(=O)n(-c3ccc(Br)cc3)c(=S)c2c1 | MY330/88 | - | 14 d | 62.5 µM
CCCCCCOc1ccccc1NC(=O)OCCN1CCCCC1 | MY330/88 | - | - | 62.5 µM
CC[C@H]1OC(=O)[C@H](C)[C@@H](O[C@H]2C[C@@](C)(OC)[C@@H](O)[C@H](C)O2)[C@H](C)[C@@H](O[C@@H]2O[C@H](C)C[C@H](N(C)C)[C@H]2O)[C@](C)(OC)C[C@@H](C)C(=O)[C@H](C)[C@@H](O)[C@]1(C)O | IWGMT49 | broth dilution | - | 4 µg/mL
CCCCCCOc1ccccc1NC(=O)OCC[NH+]1CCCC1 | MY330/88 | - | - | 62.5 µM
c1ccc(-c2ccc(CNc3ccc(N4CCSCC4)cc3)cc2)cc1 | 103317 | - | - | >16 µg/mL
CCCCCCCCCOc1ccc(NC(=O)OCC[NH+]2CCCC2)cc1 | MY330/88 | - | - | 16 µM
CCCCCCOc1ccccc1NC(=O)OCC[N+]1(CCCC)CCCCC1 | MY330/88 | - | - | 62.5 µM
CN[C@@H]1[C@H](O[C@H]2[C@H](O[C@H]3[C@H](O)[C@@H](O)[C@H](N=C(N)N)[C@@H](O)[C@@H]3N=C(N)N)O[C@@H](C)[C@]2(O)C=O)O[C@@H](CO)[C@H](O)[C@H]1O | 103317 | - | - | 8 µg/mL
Cc1ccc(-n2c(=O)oc3ccc(C)cc3c2=S)cc1 | MY330/88 | - | 21 d | 1 µM
Cc1ccn2c(C(=O)NCc3ccc(N4CCC(c5ccc(OC(F)(F)F)cc5)CC4)cc3)c(C)nc2c1 | 2151 | resazurin | - | <2 µM
CCCCCOc1ccccc1NC(=O)OC(C)CN1CCCCC1 | MY330/88 | - | - | 125 µM
O=C(C/C=C/c1ccccc1)Nc1ccccc1N1CCSCC1 | 103317 | - | - | >16 µg/mL
CCCCCCOc1ccc(NC(=O)OCCN2CCCCC2)cc1 | MY330/88 | - | - | 32 µM
CCOc1c(N2CCC(C(C)(C)N)C2)c(F)cc2c(=O)c(C(=O)O)cn(C3CC3)c12 | LR114F | - | - | 0.25 µg/mL
Clc1ccc(/C(Cn2ccnc2)=N\OCc2ccccc2)cc1 | 103317 | - | - | 1.53 µM

A second listing of 4 rows from above:

compound	strain	method	conditions	result
O=C(C/C=C/c1ccccc1)Nc1cccc(N2CCSCC2)c1	103317	-	-	>16 µg/mL
CCCCCOc1ccc(NC(=O)OCCN2CCOCC2)cc1	MY330/88	-	-	62.5 µM
CCCCCCCCCOc1ccc(NC(=O)OCC[NH+]2CCCC2)cc1	MY330/88	-	-	16 µM
CCCCOc1ccc(NC(=O)OCC[NH+]2CCCC2)cc1	MY330/88	-	-	250 µM